The assay deals with PHL (Photorhabdus asymbiotica, UniProt C7BLE4). Kind of assay: SPR inhibition of PHL binding to immobilized L-fucoside. The note with it: from IC50. The protocol: SPR inhibition experiments were performed using the same conditions described above. The PHL lectin (0.25 μM final concentration) was mixed with various concentrations of inhibitors (1M – 0.01 mM) and injected onto the sensor chip. Pure PHL lectin was used as a control (0% inhibition). The response of the lectin bound to the sugar surface at equilibrium was plotted against the concentration of inhibitor in order to determine IC50.

Not every entry of the source has a single result; some have several. This list holds those alone. The source may hold further records. Results that share an entry do not match, cause unknown; dose, time, organism, isomer or construct need not be as stated for each record.

On to `CO[C@@H]1O[C@@H](C)[C@@H](O)[C@@H](O)[C@@H]1O` [Me-α-L-Fuc, Methyl-α-L-fucopyranoside], for which the “Potency relative to L-Fuc” value is “about 10 and 9.39”.

The values above are taken from publication PMC5584973, “Characterization of novel bangle lectin from Photorhabdus asymbiotica with dual sugar-binding specificity and its effect on host immunity” (PLoS Pathogens, 2017).
